Measured values from several laboratories, pooled; numbers as filed in NIAID ChemDB.

MIC bound comes from a single tested concentration. Rows are shuffled and stem from different studies. Percent inhibition refers to the dose given; in toxicity tests it is the harm to the cells. ICn is the concentration giving n% inhibition. MIC50, MIC90 and the like: level of inhibition, or share of isolates inhibited. An empty or dashed field is not shown.

SMILES	test	organism	strain	target	method	measure	dose	value
CC(=O)Nc1ccc(S(=O)(=O)C(F)(F)F)cc1	culture	Mycobacterium tuberculosis	H37Rv			MIC		100 µg/mL
O=C1c2ccncc2C(=O)c2c1[nH]c1ccccc21	culture	Mycobacterium tuberculosis	H37Rv		resazurin	inhibition	6.25 µg/mL	99%
c1ccc2c(c1)OCCCCCCCCCCOc1ccccc1-2	culture	Mycobacterium tuberculosis	H37Rv			MIC		>100 µg/mL
COc1ccc(N=Nc2c(-c3ccccc3)nn(C(=S)S)c2-c2ccccc2)cc1	culture	Mycobacterium tuberculosis	H37Rv		BACTEC	MIC		16 µg/mL
COc1cc(Nc2cncc(-c3cccc(F)c3)n2)cc(OC)c1OC	target	Cytomegalovirus		UL97 kinase		inhibition	1 µM	<50%
N#CCc1cccc2ccccc12	culture	Mycobacterium tuberculosis	H37Rv			MIC		100 µg/mL
S=c1ssc2ccccc12	culture	Mycobacterium tuberculosis	H37Rv		BACTEC	MIC bound		>12.5 µg/mL
FC(F)(F)c1cc(-c2cncc(N3CCN(c4ccncc4)CC3)n2)cc(C(F)(F)F)c1	target	Cytomegalovirus		UL97 kinase		IC50		<100 µM
CCCC(=O)NC(Nc1cc(C)ccn1)(C(=O)OCC)C(F)(F)F	culture	Mycobacterium tuberculosis	H37Rv		BACTEC	MIC bound		>12.5 µg/mL
Fc1ccc(N2CCN(c3cncc(-c4ccoc4)n3)CC2)c(F)c1	target	Cytomegalovirus		UL97 kinase		IC50		<10 µM
Oc1cccc(O)c1O	culture	Mycobacterium tuberculosis	H37Rv			MIC		>100 µg/mL
C=CCn1c(-c2ccccn2)n[nH]c1=S	culture	Mycobacterium tuberculosis	H37Rv		BACTEC	inhibition	12.5 µg/mL	0%
NCC(O)CO	culture	Mycobacterium tuberculosis	H37Rv			MIC		>100 µg/mL
Fc1ccc(N2CCN(c3cncc(-c4ccoc4)n3)CC2)cc1	target	Cytomegalovirus		UL97 kinase		inhibition	10 µM	>15%
Fc1ccc(N2CCCCC2)c(NC(=S)c2ccncc2)c1	host protein			eEF-2K	kinase activity	inhibition	10 µM	13%
CC(=O)Oc1ccc(C2COc3cc(OC(C)=O)c(OC(C)=O)cc3C2)cc1	culture	Mycobacterium tuberculosis	H37Rv		BACTEC	MIC bound		>12.5 µg/mL
CSc1ccc(-c2cncc(N3CCN(c4cccc(Cl)c4)CC3)n2)cc1	target	Cytomegalovirus		UL97 kinase		IC50		<10 µM
COC(=O)C1=CN(c2ccc(C(=O)OC)cc2)C(=O)C1=[N+]=[N-]	culture	Mycobacterium tuberculosis	H37Rv		BACTEC	MIC		≥12.8 µg/mL
O=c1cc[nH]c2c(Cl)cccc12	culture	Mycobacterium tuberculosis	H37Rv			MIC		>100 µg/mL
Cn1cc(NC(=O)c2cc(NC(=O)Nc3cc(C(=O)Nc4cc(C(=O)Nc5ccc6cc(S(=O)(=O)O)cc(S(=O)(=O)O)c6c5)n(C)c4)n(C)n3)nn2C)cc1C(=O)Nc1ccc2cc(S(=O)(=O)O)cc(S(=O)(=O)O)c2c1	culture	Mycobacterium tuberculosis	H37Rv		BACTEC	MIC bound		>12.5 µg/mL
Cl.Nc1nccc(Nc2c(O)cccc2O)n1	culture	Mycobacterium tuberculosis	H37Rv			MIC		>100 µg/mL
c1cncc(-c2cncc(N3CCN(c4ccncc4)CC3)n2)c1	target	Cytomegalovirus		UL97 kinase		IC50		<100 µM
Cc1cc2c(cc1C)[n+](=O)c(C(=O)C/C(=N\NC(=O)c1ccccc1O)C(=O)Nc1ccccc1C(C)C)c(C)n2[O-]	culture	Mycobacterium tuberculosis	H37Rv		BACTEC	MIC bound		>12.5 µg/mL
Oc1ccc(-c2cncc(N3CCN(c4ccncc4)CC3)n2)cc1	target	Cytomegalovirus		UL97 kinase		IC50		<100 µM
CCC1(c2ccc(N)c(N)c2)C(=O)NC(=O)NC1=O	culture	Mycobacterium tuberculosis	H37Rv			MIC		>100 µg/mL
C=CCc1ccc(OC)c(OC)c1	culture	Candida tropicalis	2857		turbidity	MIC90		350 µg/mL
O=S1(=O)c2ccccc2Oc2cc(Cl)ccc21	culture	Mycobacterium tuberculosis	H37Rv			MIC		>100 µg/mL
COc1cccc(-c2cncc(N3CCN(c4cccc(Cl)c4)CC3)n2)c1	target	Cytomegalovirus		UL97 kinase		inhibition	1 µM	<50%
CO[C@@]12[C@H](COC(N)=O)C3=C(C(=O)C(C)=C(N)C3=O)N1C[C@H]1[C@@H]2N1C	culture	Mycobacterium tuberculosis	H37Rv		BACTEC	inhibition	12.8 µg/mL	99%
Cc1ccc(O)c2c1C(=O)c1ccccc1C2=O	culture	Mycobacterium tuberculosis	H37Rv			MIC		50 µg/mL

Repeating the final 2 entries:

SMILES | test | organism | strain | target | method | measure | dose | value
CO[C@@]12[C@H](COC(N)=O)C3=C(C(=O)C(C)=C(N)C3=O)N1C[C@H]1[C@@H]2N1C | culture | Mycobacterium tuberculosis | H37Rv |  | BACTEC | inhibition | 12.8 µg/mL | 99%
Cc1ccc(O)c2c1C(=O)c1ccccc1C2=O | culture | Mycobacterium tuberculosis | H37Rv |  |  | MIC |  | 50 µg/mL